SMILES strings stand for the structures. This is a selection; strong and weak results do not stand in their true shares. Activity calls are given as the source filed them. Rule as the data show it: active = inhibition above about 24%; inactive = the rest.

The target of the experiment is Major prion protein (Homo sapiens) (UniProt P04156). In words: inhibitors of human cell surface prion protein PrPC, primary screen, cell-based, TR-FRET (AID 720596). Also: 0% = median of the test wells and 100% = reference compound wells. Particulars: TR-FRET read-out, at 13.8 µM, hits give high values. On the technique in general: In TR-FRET formats the signal depends on donor and acceptor labels being close together.
For `[N-]=[N+]=NC1CCCCC1NC(=O)c1cc([N+](=O)[O-])cc([N+](=O)[O-])c1` (stereo not given), the inhibition was inactive: -58.4%.

Consider `Cc1ccc(OP(=O)(Nc2ccc([N+](=O)[O-])cn2)Oc2ccc(C)cc2)cc1`, for which the inhibition is inactive: -0.01%.

As to `Cc1ccc2nc3c(c(C)c2c1)CC(C(Cl)Cl)S3` (stereo not given), the inhibition was active: 30.1%.

Take `O=[As](O)(c1ccc(O)cc1)c1ccccc1O`: the inhibition was inactive: 3.87%.

As to `C[As](=O)(O)c1cccc(C(=O)O)c1`, the inhibition is inactive: -0.53%.

As to `O=[N+]([O-])c1ccc(-c2cc([N+](=O)[O-])c(O)c([N+](=O)[O-])c2)cc1`, the inhibition is inactive: -7.15%.

For the compound `COc1cc(C(=O)NCC2(N3CCOCC3)CCCCC2)ccc1OCC(C)C`, the inhibition was inactive: 3.01%.

Turning to `CC(C)NC(=O)NP(=O)(Oc1ccccc1)Oc1ccccc1`, the inhibition is inactive: 8.67%.

On to `CCN(CC)C(=S)SC(NC=O)C(Cl)(Cl)Cl` (stereo not given), for which the inhibition is inactive: -1.8%.

Turning to `O=C(OC1CN2CCC1CC2)c1cccc2[nH]cnc12` (stereo not given), the inhibition was inactive: -4.31%.

For the compound `ClCCSc1nnc(-c2cccnc2)o1`, the inhibition is inactive: 2.86%.

Turning to `COC(=O)C1(C)COP(=O)(N2CCCCCC2)OC1` (stereo not given), the inhibition is inactive: -1.51%.

`CC(C)c1ccc(OP(=O)(Nc2ccccn2)Oc2ccccc2F)cc1` (stereo not given): the inhibition was inactive: -9.46%.

Regarding `O=P1(N(CCCl)CCCl)Nc2ccccc2N1`, the inhibition was inactive: -8.02%.

Take `O=P1(N(CCCl)CCCl)OCCCN1CCCl` (stereo not given): the inhibition was inactive: 4.42%.

In the case of `COc1ccc2nc(NP(=O)(c3ccccc3)c3ccccc3)sc2c1`, the inhibition was inactive: 5.41%.

For `COc1cc(I)ccc1[As](=O)(O)O`, the inhibition was inactive: 10.9%.

On to `Cc1c2c(nc3ccccc13)SC(C(Cl)Cl)C2` (stereo not given), for which the inhibition was active: 39%.

Regarding `O=C(OC1CN2CCC1CC2)C12CC3CC(CC(C3)C1)C2` (stereo not given), the inhibition is inactive: 5%.

As to `Cc1cc(=O)[nH]c(N[N+](=O)[O-])n1`, the inhibition is inactive: -4.15%.

Take `O=[N+]([O-])c1cc(Oc2ccc([N+](=O)[O-])cc2C(F)(F)F)cc([N+](=O)[O-])c1`: the inhibition is inactive: -31.6%.

`COc1ccc(N/C(=N/P(=O)(N2CCOCC2)N2CCOCC2)N2CCOCC2)cc1`: the inhibition is inactive: -0.22%.

For the compound `O=C(O)C(=O)c1ccc(N(CCCl)CCCl)cc1`, the inhibition is inactive: 5.77%.

Consider `O=C(COc1ccccc1)OC1CN2CCC1CC2` (stereo not given), for which the inhibition is inactive: -2.03%.

As to `O=C(Nc1ccncc1[N+](=O)[O-])c1ccc([N+](=O)[O-])cc1[N+](=O)[O-]`, the inhibition is inactive: -48.2%.

Turning to `COP1(=S)c2c(C)nn(CCC#N)c2N=C(c2ccc(F)cc2)N1C` (stereo not given), the inhibition is inactive: 0.1%.

With `COC(=O)C1(C)COP(=O)(N2CCCC2)OC1` (stereo not given), the inhibition is inactive: 1.67%.

As for `CCC(C)N(CC(C)C)C(=S)SC(NC(C)=O)C(Cl)(Cl)Cl` (stereo not given), the inhibition was inactive: -4.77%.

For `O=C(OC1CN2CCC1CC2)c1cccc([N+](=O)[O-])c1` (stereo not given), the inhibition was inactive: -11.3%.

For `CCOC(=O)c1ccc(NC(=O)C(C)(CCl)SC)cc1` (stereo not given), the inhibition is inactive: 6.09%.

Regarding `COP(=O)(OC)N1CC1c1ccccc1` (stereo not given), the inhibition is inactive: 4.45%.

Consider `CCCCOc1ccc(C(=O)NCC2(N3CCCCC3)CCCCC2)cc1OC`, for which the inhibition was inactive: 1.46%.

With `Cc1cc(SC(NC(=O)c2ccccc2)C(Cl)(Cl)Cl)nc(C(C)C)n1` (stereo not given), the inhibition was inactive: 3.08%.

For `CCOC(=O)Nc1ccc([As](=O)(O)O)c(O)c1`, the inhibition is inactive: -2.69%.

Take `O=C(O)C(O)c1ccc(N(CCCl)CCCl)cc1` (stereo not given): the inhibition is inactive: 2.65%.

Regarding `CC1CCNP(=O)(N(CCCl)CCCl)O1` (stereo not given), the inhibition was inactive: 1.59%.

As to `O=P(Nc1ccccn1)(c1cccc2ccccc12)c1cccc2ccccc12`, the inhibition was inactive: -0.24%.

Consider `Cc1cc(SC(NC=O)C(Cl)(Cl)Cl)ncn1` (stereo not given), for which the inhibition was inactive: -6.01%.

Regarding `O=[N+]([O-])c1ccc(Nc2ccc(Oc3ccc([N+](=O)[O-])cc3[N+](=O)[O-])cc2)c([N+](=O)[O-])c1`, the inhibition was inactive: -1.23%.

As to `CCOC(=O)Nc1cccc([As](=O)(O)O)c1`, the inhibition is inactive: 2.13%.

`CN(C)C1(CNC(=O)c2ccc(S(C)(=O)=O)cc2)CCCCC1`: the inhibition is inactive: 4.91%.

`O=C(/C=C/c1ccccc1)OC1CN2CCC1CC2` (stereo not given): the inhibition is inactive: 2.15%.

Take `CCCC1OP(=O)(Nc2ccccc2)OCC1CC` (stereo not given): the inhibition is inactive: -4.61%.

As to `Cc1nn(-c2ccccc2)c2c1P(=O)(N1CCOCC1)N(C)C(c1ccccc1)=N2` (stereo not given), the inhibition is inactive: 2.91%.

In the case of `CC1CCC(C(C)C)C(OP(=O)(Nc2ccccn2)c2ccccc2)C1` (stereo not given), the inhibition is inactive: -4.16%.

Regarding `Cc1ccc(C(=O)OC2CN3CCC2CC3)cc1` (stereo not given), the inhibition was inactive: -1.45%.

As to `Nc1cccc([As](=O)(O)c2ccccc2)c1`, the inhibition was inactive: 0.61%.

For the compound `Cc1ccc(OCC(=O)OC2CN3CCC2CC3)cc1` (stereo not given), the inhibition is inactive: -5.84%.

Regarding `O=[As](O)(c1cccs1)c1cccs1`, the inhibition was inactive: -2.61%.

Regarding `O=P1(Nc2ccc(Br)cn2)COc2ccccc2OC1`, the inhibition was inactive: 3.57%.

In the case of `NS(=O)(=O)c1cccc(NC(=O)COC(=O)C(O)(c2ccccc2)c2ccccc2)c1`, the inhibition is inactive: 6.82%.

With `Cc1ccc(S(=O)(=O)N(CCCN)CCCc2c(C)nc(N)[nH]c2=O)cc1`, the inhibition was inactive: -18.9%.

For the compound `O=P1(Nc2ncccn2)COc2ccccc2OC1`, the inhibition was inactive: -4.53%.

`O=P1(N(CCCl)CCCl)NCCC(C(F)(F)F)O1` (stereo not given): the inhibition was inactive: -8.95%.

On to `Clc1n[nH]nc1-c1nn[nH][15n]1`, for which the inhibition is inactive: -1.15%.

With `CC(C)(C)C(=O)NC(Sc1ncccn1)C(Cl)(Cl)Cl` (stereo not given), the inhibition is inactive: 8.28%.

With `O=P1(Nc2ccccn2)COc2ccccc2OC1`, the inhibition is inactive: 8.91%.

As for `CCC1=CC2Cc3nc4ccc(Cl)cc4c(N)c3C(C1)C2` (stereo not given), the inhibition is inactive: -3.91%.

On to `CCOP(=O)(NC(=NC(C)c1ccccc1)NC(C)c1ccccc1)OCC` (stereo not given), for which the inhibition is inactive: 5.06%.

As for `CCOP(=O)(Nc1ccc(C)cn1)OCC`, the inhibition is inactive: -6.68%.

Regarding `CN(CCCl)Cc1cc(Cl)c(NC2=NCCN2)c(Cl)c1`, the inhibition is inactive: -5.5%.

In the case of `CC(C)/C=N\N=C(\N)N[N+](=O)[O-]`, the inhibition is inactive: -7.58%.

Turning to `CN(C(=O)Cc1ccc(Cl)c(Cl)c1)[C@@H]1CCCC[C@H]1N1CCCC1`, the inhibition was inactive: -6.57%.

Take `CN(C(=O)Cc1ccc(Cl)c(Cl)c1)C1CCCC[C@@H]1N1CCCC1` (stereo not given in full): the inhibition was inactive: 5.12%.

Consider `CC1(CBr)Cn2c(nc3ccccc3c2=O)S1` (stereo not given), for which the inhibition is inactive: 0.32%.

In the case of `COc1ccccc1CNC(=O)COC(=O)C(O)(c1ccccc1)c1ccccc1`, the inhibition is inactive: 7.38%.

For the compound `Cc1cccc(OCC(=O)OC2CN3CCC2CC3)c1` (stereo not given), the inhibition was inactive: 3.88%.

As for `O=[As](O)(c1cccc(O)c1)c1cccc(O)c1`, the inhibition was inactive: -2.28%.

Consider `O=C(OC1CN2CCC1CC2)c1ccc(Cl)cc1` (stereo not given), for which the inhibition was inactive: -12.2%.

With `O=[As](O)(O)c1cccnc1`, the inhibition was inactive: 4.89%.

For `COc1cc(C(=O)NCC2(N3CCOCC3)CCCCC2)cc(Cl)c1OC(C)C`, the inhibition is inactive: -1.99%.

On to `CS(=O)(=O)c1ccc(Cl)c(NC(=O)COC(=O)C(O)(c2ccccc2)c2ccccc2)c1`, for which the inhibition is inactive: 4.95%.

With `COc1cc(C2NCCC3(OCCO3)C2(C)C)cc(OC)c1OC` (stereo not given), the inhibition was inactive: -0.16%.

As to `CCOP(=O)(Nc1cccc2ccccc12)OCC`, the inhibition is inactive: 1.9%.

With `Cc1ccc(NCCc2c([N+](=O)[O-])cc([N+](=O)[O-])cc2[N+](=O)[O-])cc1`, the inhibition is inactive: -32.4%.

As for `Nc1cccc2c([As](=O)(O)O)cccc12`, the inhibition is inactive: -19.7%.

For `CCCOP(=S)(Nc1nc(N)cc(=O)[nH]1)OCCC`, the inhibition was inactive: 12.3%.

Turning to `Nc1ccccc1[As](=O)(O)c1ccccc1`, the inhibition is inactive: -3.49%.

On to `O=C(O)COc1ccc([As](=O)(O)O)cc1[N+](=O)[O-]`, for which the inhibition was inactive: 5.37%.

As for `CCOP1(=S)c2c(C)nn(CCC#N)c2N=C(c2ccccc2F)N1C` (stereo not given), the inhibition is inactive: -1.6%.

Regarding `O=P(Nc1nccs1)(Oc1ccccc1)Oc1ccccc1`, the inhibition is inactive: -0.64%.

Turning to `N#CCCN(C(=O)COC(=O)C(O)(c1ccccc1)c1ccccc1)c1ccc(F)cc1`, the inhibition was inactive: -1.88%.

With `CCOP1(=S)c2c(C)nn(CCC#N)c2N=C(c2ccc(F)cc2)N1C` (stereo not given), the inhibition is inactive: -1.08%.

As for `CN(C(=O)Cc1ccccc1)[C@@H]1CC[C@]2(CCCO2)C[C@H]1N1CCCC1`, the inhibition is inactive: -6.98%.

As for `O=[N+]([O-])c1ccc2c(c1)nnn2O`, the inhibition was inactive: -19.5%.

Regarding `CN(C)C(=O)c1cc([N+](=O)[O-])cc2c1-c1c(cc([N+](=O)[O-])cc1[N+](=O)[O-])C2=O`, the inhibition is inactive: -40%.

Consider `CN(C(=O)Cc1ccc(Cl)c(Cl)c1)[C@H]1CC[C@@]2(CCCO2)C[C@@H]1N1CCCC1`, for which the inhibition was inactive: -9.76%.

`NC(=O)Nc1ccc([As](=O)(O)O)cc1`: the inhibition is inactive: 0.36%.

On to `O=P1(N(CCCl)CCCl)OCCC2CCCCN21` (stereo not given), for which the inhibition was inactive: 5.95%.

On to `c1ccc(-c2nn[nH]n2)c(-c2nn[nH]n2)c1`, for which the inhibition is inactive: 7.23%.

On to `Cc1ccc(NP(=O)(Oc2cccc(C)c2)Oc2cccc(C)c2)nc1`, for which the inhibition was inactive: -2.19%.

`CCNC(=S)/N=C(\N)N[N+](=O)[O-]`: the inhibition is inactive: -4.29%.

On to `O=C(NC1CCS(=O)(=O)C1)NP(=S)(Oc1ccccc1)Oc1ccccc1` (stereo not given), for which the inhibition is inactive: -5.08%.

As to `CC(NC(=O)COC(=O)C(O)(c1ccccc1)c1ccccc1)c1ccccc1` (stereo not given), the inhibition is inactive: 8.52%.

On to `Cc1ccccc1OP(=O)(Nc1ccccn1)Oc1ccccc1C`, for which the inhibition is inactive: -0.21%.

In the case of `O=c1c2cc([N+](=O)[O-])ccc2[nH]c2c([N+](=O)[O-])cc([N+](=O)[O-])cc12`, the inhibition is inactive: -15.4%.

On to `CN(C)C(=O)Oc1noc2ccccc12`, for which the inhibition is inactive: 7.23%.

Turning to `O=C(OC1CN2CCC1CC2)c1ccccc1` (stereo not given), the inhibition was inactive: 1.29%.

For the compound `CCC(=O)N1C2C3N(C(=O)CC)C1C1N(C(=O)CC)C(C(N1C(=O)CC)N3C(=O)CC)N2C(=O)CC`, the inhibition was inactive: 0.6%.

As for `COC(=O)c1cc2c(s1)N=C(c1ccccc1)N(C)P2(=O)N1CCOCC1` (stereo not given), the inhibition was inactive: -4.47%.

The term inhibition denotes the change of the read-out against control, counted positive when it falls.

(Values after PubChem BioAssay AID720596 (The Scripps Research Institute Molecular Screening Center, 2013).)
